Laboratory results from the supplement of paper PMC9931576.
Human monoclonal antibodies against the spike receptor-binding domain (heavy:light variable regions). IC50 against pseudoviruses bearing the spike of naturally observed variants; lower = stronger; >10 µg/ml means not reached at the top dose. No active / inactive call. The stated detection limit is 0.0005 µg/ml; values near or below 0.001 µg/ml lie at the floor of the assay.

B1: BD56-1208 (protein)
chain 1: QLQLQESGPGLVKPSETLSLTCTVSGASISARGYSWGWIRQPPGKGLEWIGSIYYRGSTFYNPSLKSRVTISVDTSKNQFSLKVSSVTAADTAVFYCATFHILTHWADSWGQGTLVTVSS
chain 2: NFMLTQPHSVSESPGKTVTISCTGSSGSIASNYVQWYQQRPGSAPTTVIYEDNQRPSGVPDRFSGSIDSSSKSASLTISGLKTEDEAYYYCQSFDGSFVVFGGGTKLTVL
B2: BD56-1184 (protein)
chain 1: EVQLVESGGGLVKPGGSLRLSCAASGFTFSGYSMNWVRQAPGKGLEWVSSISSSSSYIYYADSVKGRFTVSRDNAKNSLYLQMNSLRAEDTAVYYCVSMPDNYAYVALDYWGQGTLVTVSS
chain 2: QPLLTQPPSASASLGASVTLTCTLSSGYSNYEVDWYQQRPGKGPRFVMRVGTGGIVGSKGDGIPDRFSVLGSGLNRYLTIKNIQEEDESDYHCGADHGSGDNFSWVFGGGTKLTVL
B3: BD56-1201 (protein)
chain 1: QVQLVESGGGVVQPGRSLRLSCAASGFTFSSYGMHWVRQAPGKGLEWVAVISYDGDGSNKYYADSVKGRFTISRDNSRNTLYLQMNSLRAEDTAVYYCVKGGEYQLLDPDWYYFGYWGQGTLVTVSS
chain 2: AIRITQSPSSLSASTGDRVTITCRASQGISSYLAWYQQKPGKAPKLLIYAASTLQSGVPSRFSGSGSGTDFTLTINHLQSEDFATYYCQQYYSYPLTFGGGTKVEIK
B4: BD56-1191 (protein)
chain 1: EVQLVESGGGLVQPGRSLRLSCAASGFTFDDYAMHWVRQAPGKGLEWVSGISWNGDNIDYAGSVKGRFTISRDNAKNSLYLQMNSLRAEDTALYYCAKTNGIREDYIGHDVFDMWGQGTMVTVSS
chain 2: SYELTQPPSVSVSPGQTARITCSGDALPKKYAYWYQQKSGQAPVLVIYEDSKRPSGIPERFSGSSSGTMATLTISGAQVEDEADYYCYSTDSSGYPLFGGGTKLTVL
B5: BD56-1193 (protein)
chain 1: EVQLVESGGGLVQPGGSLRLSCAASGFIFSNYWMSWVRQAPGKGLEWVANINQDGSEKYYVDSVKGRFTISRDNAKKSLYLQMNSLRAEDTAVYYCARGADNYDSSHYCGYWGQGTLVTVSS
chain 2: SYELTQPPSVSVSPGQTARITCSGDALPNQYAYWYQQKPGQAPVLVIYKDSERPSGIPERFSGSSSGTTVTLTISGVQAEDEADYYCQSADSSGTYPVVFGGGTKLTVL

Each binder was assayed against SARS-CoV-2 Omicron BA.1 spike pseudovirus (assay: pseudovirus neutralization IC50; higher = weaker neutralization).
Description: (§1)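 Single-round VSV luciferase pseudovirus mixed with antibody dilutions for 1 h and put on Huh-7 cells for about a day; IC50 from the dose curve.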

Binder	pseudovirus neutralization IC50 [µg/mL]
B1	1.03
B2	0.0021
B3	0.043
B4	0.288
B5	0.00554

The binders below were run against SARS-CoV-2 Omicron BA.2 spike pseudovirus in the same assay as above.
Description: as §1

Binder	pseudovirus neutralization IC50 [µg/mL]
B1	0.442
B2	0.00547
B3	0.067
B4	0.361
B5	0.00274

The binders below were run against SARS-CoV-2 Omicron BA.2.75 spike pseudovirus in the same assay as above.
Description: as §1

Binder	pseudovirus neutralization IC50 [µg/mL]
B1	> 10
B2	0.00373
B3	> 10
B4	> 10
B5	0.0287

These binders were tested against SARS-CoV-2 Omicron BA.2.75.2 spike pseudovirus in the same assay as above.
Description: as §1

Binder	pseudovirus neutralization IC50 [µg/mL]
B1	> 10
B2	> 10
B3	> 10
B4	> 10
B5	0.062

Each binder was assayed against SARS-CoV-2 Omicron BA.5 spike pseudovirus in the same assay as above.
Description: as §1

Binder	pseudovirus neutralization IC50 [µg/mL]
B1	0.363
B2	0.0726
B3	2.03
B4	> 10
B5	0.00136

These binders were tested against SARS-CoV-2 Omicron BM.1.1.1 spike pseudovirus in the same assay as above.
Description: as §1

Binder	pseudovirus neutralization IC50 [µg/mL]
B1	> 10
B2	> 10
B3	> 10
B4	> 10
B5	0.0216

These binders were tested against SARS-CoV-2 Omicron BQ.1.1 spike pseudovirus in the same assay as above.
Description: as §1

Binder	pseudovirus neutralization IC50 [µg/mL]
B1	> 10
B2	0.276
B3	> 10
B4	> 10
B5	0.00366

What follows are binders tested against SARS-CoV-2 Omicron BR.2 spike pseudovirus in the same assay as above.
Description: as §1

Binder	pseudovirus neutralization IC50 [µg/mL]
B1	> 10
B2	0.00697
B3	> 10
B4	> 10
B5	0.0313

The binders below were run against SARS-CoV-2 Omicron CA.1 spike pseudovirus in the same assay as above.
Description: as §1

Binder	pseudovirus neutralization IC50 [µg/mL]
B1	> 10
B2	> 10
B3	> 10
B4	> 10
B5	0.0397

The binders below were run against SARS-CoV-2 Omicron XBB spike pseudovirus in the same assay as above.
Description: as §1

Binder	pseudovirus neutralization IC50 [µg/mL]
B1	> 10
B2	> 10
B3	> 10
B4	> 10
B5	> 10

These binders were tested against SARS-CoV-2 early D614G spike pseudovirus in the same assay as above.
Description: as §1

Binder	pseudovirus neutralization IC50 [µg/mL]
B1	> 10
B2	> 10
B3	> 10
B4	> 10
B5	> 10
